Measured values from several laboratories, pooled; numbers as filed in NIAID ChemDB.

Shared fields: host cell toxicity; read-out: CC50

Lines come from different laboratories, so protocols vary. Two numbers with a dash give a range or band. CCn: concentration that lowers growth or viability of the cells by n%. An empty or dashed field is not shown.

{"SMILES": "NC(=O)c1cccc(-c2cc3c(-c4ccnc(NC5CCCC5)n4)ccc(NC4CCCC4)n3n2)c1", "cells": "VERO 76", "value": ">30 µM"}
{"SMILES": "COc1ccc2nc3cc(Cl)ccc3c(NCCNC(=O)[C@@H]3CCCN3)c2c1", "cells": "MRC-5 cells", "method": "MTS", "value": "0.325 µM"}
{"SMILES": "CN(C(=O)NCCc1ccc2c(n1)NCCC2)c1cccc(F)c1", "cells": "PBMC", "value": "50 µM"}
{"SMILES": "COc1cccc(/C=C/C(=O)O[C@H]2CC[C@]3(C)[C@H]4CC=C5[C@@H]6C[C@@](C)(C(=O)OCc7ccc(Br)cc7F)CC[C@]6(C)CC[C@@]5(C)[C@]4(C)CC[C@H]3C2(C)C)c1", "cells": "HepG2.2.15", "value": ">1000 µM"}
{"SMILES": "CCOC(=O)C1=C(CN2CC(F)(F)[C@@H]3[C@H]2CON3C[C@@H](O)C(C)(C)C(=O)O)NC(c2nccs2)=N[C@H]1c1cccc(F)c1C", "cells": "HepG2.2.15", "method": "WST / absorbance", "value": "88.7 µM"}
{"SMILES": "Cc1[nH]c2ccccc2c1CCNCc1ccc(/C=C/C(=O)NO)cc1", "cells": "J-Lat 9.2", "method": "fluorescence", "value": ">5 µM"}
{"SMILES": "O=C(NCCc1ccc2c(n1)NCCC2)NCc1ccc2ccccc2c1", "cells": "PBMC", "value": "6.2 µM"}
{"SMILES": "CCOC(=O)C1=C(CN2CC(F)(F)[C@H]3[C@@H]2CCN3C[C@@H](OC)C(C)(C)C(=O)O)NC(c2nc(C)cs2)=N[C@H]1c1cccc(F)c1C", "cells": "HepG2.2.15", "method": "WST / absorbance", "value": "21.4 µM"}
{"SMILES": "Nc1nccc(OC[C@H]2CC[C@@H](CO)O2)n1", "cells": "PC-3", "value": ">250 µM"}
{"SMILES": "CC1(C)[C@@H](O)CC[C@]2(C)[C@H]3C(=O)C=C4[C@@H]5C[C@@](C)(C(=O)OCc6cccc(F)c6)CC[C@]5(C)CC[C@@]4(C)[C@]3(C)CC[C@@H]12", "cells": "HepG2.2.15", "value": ">1310 µM"}
{"SMILES": "COc1ccc(F)cc1-c1cccc(NC(=O)NCCc2ccc3c(n2)NCCC3)n1", "cells": "PBMC", "value": "6.1 µM"}
{"SMILES": "CN1CCN(c2ccnc3nc(CN(CCCCN)Cc4ncccc4C#N)[nH]c23)CC1", "cells": "C8166", "method": "MTT", "value": ">10 µM"}
{"SMILES": "c1ccc(COC[C@@H]2CC[C@H](COc3ncnc4nc[nH]c34)O2)cc1", "cells": "PC-3", "value": "84 µM"}
{"SMILES": "COc1cccc(-c2cc3c(-c4ccnc(NC5CCCC5)n4)ccc(NC4CCCC4)n3n2)c1", "cells": "VERO 76", "value": ">40 µM"}
{"SMILES": "COC(=O)C1=C(CN2CC(F)(F)[C@@H]3[C@H]2CON3C[C@@](C)(O)C(C)(C)C(=O)O)NC(c2nccs2)=N[C@H]1c1ccc(F)c(F)c1C", "cells": "HepG2.2.15", "method": "WST / absorbance", "value": ">3.13 µM"}
{"SMILES": "CC1(C)[C@@H](O)CC[C@]2(C)[C@H]3C(=O)C=C4[C@@H]5C[C@@](C)(C(=O)OCC6CCOCC6)CC[C@]5(C)CC[C@@]4(C)[C@]3(C)CC[C@@H]12", "cells": "HepG2.2.15", "value": ">1910 µM"}
{"SMILES": "CCOC(=O)C1=C(CN2CC(F)(F)[C@@H]3[C@H]2CON3C[C@H](OC)C(C)(C)C(=O)O)NC(c2nccs2)=N[C@H]1c1ccc(F)cc1Cl", "cells": "HepG2.2.15", "method": "WST / absorbance", "value": "100 µM"}
{"SMILES": "CN(C)c1ccc(NC(=S)NCCc2ccc3c(n2)NCCC3)c2ccccc12", "cells": "PBMC", "value": "1.9 µM"}
{"SMILES": "CN(C)CCCc1cccnc1CN(C)Cc1nc2ccccc2[nH]1", "cells": "C8166", "method": "MTT", "value": ">10 µM"}
{"SMILES": "CCOC(=O)c1c(NC(CO)c2ccccc2)c2cccnc2n(O)c1=O", "cells": "HeLa", "value": "<100 µM"}
{"SMILES": "COC(=O)C1=C(CN2CC(F)(F)[C@H]3[C@@H]2CCN3CC[C@](C)(O)C(=O)O)NC(c2nccs2)=N[C@H]1c1ccc(F)c(F)c1C", "cells": "HepG2.2.15", "method": "WST / absorbance", "value": ">25 µM"}
{"SMILES": "O=c1cc(NCc2ccccc2)c2cccnc2n1O", "cells": "HeLa", "value": "<100 µM"}
{"SMILES": "COc1ccc2nc3cc(Cl)ccc3c(NCCCCCCNC(=O)[C@@H](N)Cc3cnc[nH]3)c2c1", "cells": "KB cells", "method": "MTS", "value": "1.28 µM"}
{"SMILES": "CCOC(=O)C1=C(CN2CC(F)(F)[C@@H]3[C@H]2CON3C[C@@H](O)C(CC)(CC)C(=O)O)NC(c2nccs2)=N[C@H]1c1cccc(F)c1C", "cells": "HepG2.2.15", "method": "WST / absorbance", "value": "15.8 µM"}
{"SMILES": "O=C(c1cccc(-c2cc(=O)n(O)c3ncccc23)c1)N1CCCC1", "cells": "HeLa", "value": "<100 µM"}
{"SMILES": "Cn1c(=O)cc(Sc2c(Cl)cccc2Cl)c2ccccc21", "cells": "Huh-Luc-Neo", "value": ">100 µM"}
{"SMILES": "CN1CCN(c2ccnc3nc(CN(CCCCN)Cc4ncccc4-c4ccc(C(F)(F)F)cc4)[nH]c23)CC1", "cells": "C8166", "method": "MTT", "value": ">10 µM"}
{"SMILES": "CC1(C(=O)O)CC[C@]2(C)CC[C@]3(C)C(=CC(=O)C4[C@@]5(C)CCC(=O)C(C)(C)C5CC[C@]43C)C2C1", "cells": "HepG2.2.15", "value": "467 µM"}
{"SMILES": "CCOC(=O)C1=C(CN2CC(F)(F)[C@@H]3[C@H]2CON3CCCC(C)(O)C(=O)O)NC(c2nccs2)=N[C@H]1c1cccc(F)c1C", "cells": "HepG2.2.15", "method": "WST / absorbance", "value": "100 µM"}
{"SMILES": "O=C(NCCc1ccc2c(n1)NCCC2)NC1CCc2ccccc2C1", "cells": "PBMC", "value": "0.64 µM"}
{"SMILES": "c1ccc(-c2cc3c(-c4ccnc(NC5CCCC5)n4)ccc(NC4CCCC4)n3n2)cc1", "cells": "VERO 76", "value": ">40 µM"}
{"SMILES": "COc1ccc2nc3cc(Cl)ccc3c(NCCCCNC(=O)[C@@H]3CCCN3)c2c1", "cells": "KB cells", "method": "MTS", "value": "0.115 µM"}
{"SMILES": "CC(Br)Cc1cnc2c(c1)c(O)c(-c1ccccc1)c(=O)n2O", "cells": "HeLa", "value": "<100 µM"}
{"SMILES": "CCCC(=O)O[C@H]1CC[C@]2(C)[C@H]3C(=O)C=C4[C@@H]5C[C@@](C)(C(=O)O)CC[C@]5(C)CC[C@@]4(C)[C@]3(C)CC[C@H]2C1(C)C", "cells": "HepG2.2.15", "value": "118.8 µM"}
{"SMILES": "O=C(NCCc1ccc2c(n1)NCCC2)Nc1cccc2ccccc12", "cells": "PBMC", "value": "0.6 µM"}
{"SMILES": "Cn1c(=O)cc(Sc2ccc(N)cc2)c2ccc(Cl)cc21", "cells": "Huh-Luc-Neo", "value": "10–100 µM"}
{"SMILES": "CC1(C)C2CC=C3C(CC[C@@]4(C)C5C[C@](C)(C(=O)O)CC[C@]5(C)CC[C@]34C)[C@@]2(C)CCC1(O)O", "cells": "A2058", "value": "16.4 µM"}
{"SMILES": "c1ccc(COC[C@H]2CC[C@@H](COc3cc(OC[C@H]4CC[C@@H](COCc5ccccc5)O4)ncn3)O2)cc1", "cells": "L1210", "value": "20 µM"}
{"SMILES": "Cc1cc2c(Sc3ccc(F)cc3)cc(=O)n(C)c2cc1C", "cells": "Huh-Luc-Neo", "value": ">100 µM"}
{"SMILES": "COC(=O)C1=C(CN2CC(F)(F)[C@@H]3[C@H]2CON3C[C@H](OC)C(C)(C)C(=O)O)NC(c2nc(C)cs2)=N[C@H]1c1ccc(F)c(F)c1C", "cells": "HepG2.2.15", "method": "WST / absorbance", "value": ">50 µM"}
{"SMILES": "Nc1nc(OC[C@H]2CC[C@@H](CO)O2)c2[nH]cnc2n1", "cells": "PC-3", "value": ">250 µM"}
{"SMILES": "N[C@@H](Cc1cnc[nH]1)C(=O)NCCCCCCNc1c2ccccc2nc2ccccc12", "cells": "KB cells", "method": "MTS", "value": "3.7 µM"}
{"SMILES": "Cn1c(=O)cc(Sc2ccc(N)cc2)c2ccccc21", "cells": "Huh-Luc-Neo", "value": ">100 µM"}
{"SMILES": "COc1cc(OC[C@H]2CC[C@@H](COCc3ccccc3)O2)ncn1", "cells": "CAKI-1", "value": "90 µM"}
{"SMILES": "c1cc(-c2ccc(NC3CCCC3)n3nc(-c4ccc(OCC5CC5)cc4)cc23)nc(NC2CCCC2)n1", "cells": "VERO 76", "value": ">100 µM"}
{"SMILES": "NCCNc1c2ccccc2nc2ccccc12", "cells": "KB cells", "method": "MTS", "value": "1.78 µM"}
{"SMILES": "Cc1cc2c(Sc3ccc(N)cc3)cc(=O)n(C)c2cc1C", "cells": "Huh-Luc-Neo", "value": ">100 µM"}
{"SMILES": "O=S(=O)(NCCc1ccc2c(n1)NCCC2)c1ccc(Oc2ccccc2)cc1", "cells": "PBMC", "value": "50 µM"}
{"SMILES": "CN(Cc1nc2ccccc2[nH]1)Cc1ncccc1CCC(=O)NCc1ccc(F)cc1", "cells": "C8166", "method": "MTT", "value": ">10 µM"}
{"SMILES": "Nc1cc(OCC2O[C@H](COCc3ccccc3)[C@@H](OCc3ccccc3)[C@H]2OCc2ccccc2)nc(N)n1", "cells": "PC-3", "value": "22 µM"}
{"SMILES": "N[C@@H](Cc1cnc[nH]1)C(=O)NCCNc1c2ccccc2nc2ccccc12", "cells": "KB cells", "method": "MTS", "value": "<10 µM"}
{"SMILES": "Cc1cccc(Cl)c1NC(=O)NCCc1ccc2c(n1)NCCC2", "cells": "PBMC", "value": "50 µM"}
{"SMILES": "O=c1c(-c2ccccc2)c(O)c2cc(Cc3ccccc3)cnc2n1O", "cells": "HeLa", "value": "<100 µM"}
{"SMILES": "CCCCCCCCCCCCCCOC(=O)NC(CCC(=O)O)(CCC(=O)O)CCC(=O)O", "cells": "Huh7-Luc", "value": ">42 µM"}
{"SMILES": "O=C(NCCCCNc1c2ccccc2nc2ccccc12)[C@@H]1CCCN1", "cells": "KB cells", "method": "MTS", "value": "0.295 µM"}
{"SMILES": "CC1(C)[C@@H](O)CC[C@]2(C)[C@H]3C(=O)C=C4[C@@H]5C[C@@](C)(C(=O)OCCO)CC[C@]5(C)CC[C@@]4(C)[C@]3(C)CC[C@@H]12", "cells": "HepG2.2.15", "value": "380 µM"}
{"SMILES": "Cc1cc(NC(=O)NCCc2ccc3c(n2)NCCC3)c(-c2ccccc2)o1", "cells": "PBMC", "value": "28 µM"}
{"SMILES": "CCOC(=O)C1=C(CN2CC(F)(F)[C@@H]3[C@H]2CON3C[C@H](O)C(CC)(CC)C(=O)O)NC(c2nccs2)=N[C@H]1c1cccc(F)c1C", "cells": "HepG2.2.15", "method": "WST / absorbance", "value": ">25 µM"}
{"SMILES": "CCOCCOC(=O)[C@@]1(C)CC[C@]2(C)CC[C@]3(C)C(=CC(=O)[C@@H]4[C@@]5(C)CC[C@H](O)C(C)(C)[C@@H]5CC[C@]43C)[C@@H]2C1", "cells": "HepG2.2.15", "value": "541 µM"}

For reference, 8 entries again:

SMILES | cells | method | value
COc1ccc2nc3cc(Cl)ccc3c(NCCCCNC(=O)[C@@H]3CCCN3)c2c1 | KB cells | MTS | 0.115 µM
CCCC(=O)O[C@H]1CC[C@]2(C)[C@H]3C(=O)C=C4[C@@H]5C[C@@](C)(C(=O)O)CC[C@]5(C)CC[C@@]4(C)[C@]3(C)CC[C@H]2C1(C)C | HepG2.2.15 | - | 118.8 µM
CCOCCOC(=O)[C@@]1(C)CC[C@]2(C)CC[C@]3(C)C(=CC(=O)[C@@H]4[C@@]5(C)CC[C@H](O)C(C)(C)[C@@H]5CC[C@]43C)[C@@H]2C1 | HepG2.2.15 | - | 541 µM
O=c1c(-c2ccccc2)c(O)c2cc(Cc3ccccc3)cnc2n1O | HeLa | - | <100 µM
COC(=O)C1=C(CN2CC(F)(F)[C@@H]3[C@H]2CON3C[C@@](C)(O)C(C)(C)C(=O)O)NC(c2nccs2)=N[C@H]1c1ccc(F)c(F)c1C | HepG2.2.15 | WST / absorbance | >3.13 µM
CC1(C)[C@@H](O)CC[C@]2(C)[C@H]3C(=O)C=C4[C@@H]5C[C@@](C)(C(=O)OCc6cccc(F)c6)CC[C@]5(C)CC[C@@]4(C)[C@]3(C)CC[C@@H]12 | HepG2.2.15 | - | >1310 µM
COc1ccc2nc3cc(Cl)ccc3c(NCCNC(=O)[C@@H]3CCCN3)c2c1 | MRC-5 cells | MTS | 0.325 µM
CCOC(=O)C1=C(CN2CC(F)(F)[C@@H]3[C@H]2CON3C[C@@H](O)C(CC)(CC)C(=O)O)NC(c2nccs2)=N[C@H]1c1cccc(F)c1C | HepG2.2.15 | WST / absorbance | 15.8 µM